Anti-infective test results gathered from many reports (values: NIAID ChemDB through PubChem).

Common to all: whole-cell or culture tests; species: Candida albicans; measure: MIC

Blank or dashed fields: not listed here. Neighbouring rows are from separate reports.

C[C@@H](n1cnc2cc(Sc3ccccc3)ccc2c1=O)[C@](O)(Cn1cncn1)c1ccc(F)cc1F ; strain: 60 strains ; value: ≤0.03 µg/mL
C=CC(C)(C)c1[nH]c2ccccc2c1/C=C1\NC(=O)C2(O)C(O)CCN2C1=O ; strain: SC5314 ; value: >100 µg/mL
Nc1ncnc2c1ncn2[C@@H]1O[C@H](C(=O)O)[C@@H](NC(=O)[C@@H](N)Cc2cnc[nH]2)[C@H]1O ; strain: FP633 ; value: 12.5 µg/mL
Cc1c(S(=O)(=O)c2ccccc2)[n+](=O)c2cc(Cl)ccc2n1[O-] ; strain: Clinical isolate 5 ; value: 31.25 µg/mL
COC1CC2CCC(C)C(O)(O2)C(=O)C(=O)N2CCCCC2C(=O)OC(C(C)CC2CCC(O)C(C)C2)CC(=O)C(C)/C=C(\C)C(O)C(O)C(=O)C(C)CC(C)/C=C/C=C/C=C/1C ; strain: ATCC11651 ; value: 0.125 µg/mL
CN(N=C(N)c1cnccn1)S(C)(=O)=O ; read by: broth dilution ; value: >256 µg/mL
C=CC(C)(C)c1[nH]c2ccccc2c1C[C@@H]1NC(=O)[C@@H]2CCCN2C1=O ; strain: SC5314 ; value: >100 µg/mL
C[C@@H](n1cnc2c(Cl)cc(Cl)cc2c1=O)[C@](O)(Cn1cncn1)c1ccc(F)cc1F ; strain: 76 strains ; value: 10 µg/mL
CN[C@@H]1[C@H](O[C@@H]2O[C@H](CO)[C@@H](O)[C@H](S(=O)(=O)O)[C@H]2O)[C@@H](O)[C@H](O[C@H]2c3cc(C)c(C(=O)N[C@H](C)C(=O)O)c(O)c3-c3c(cc4c(c3O)C(=O)c3cc(OC)cc(O)c3C4=O)[C@@H]2O)O[C@@H]1C ; strain: ATCC 38247 ; value: 6.3 µg/mL
NCCCC[C@@H](CC(N)=O)NC(=O)N[C@H](Cc1ccccc1)NC(=O)[C@H]1CCCC[C@@H]1N ; strain: SC5314 ; read by: XTT / broth dilution ; value: 8 µg/mL
CC(C)(O)c1cn(-c2ccc(Cl)cc2)nn1 ; strain: URM 4126 ; read by: broth dilution ; value: 128 µg/mL
CCCCCCCCCCON1C(N)=NC(N)=NC1/C=C/c1ccccc1 ; value: 15 µg/mL
CN1C(=O)[C@]2(CO)NC(=O)[C@@]1(Cc1ccccc1)SS[C@@]1(CO)NC(=O)[C@@](Cc3ccccc3)(SS2)N(C)C1=O ; value: 50 µg/mL
Cc1c(Cl)[n+](=O)c2cc(Cl)ccc2n1[O-] ; strain: Clinical isolate 19 ; value: 7.8 µg/mL
C[C@@H](n1ncn(-c2ccc(OCC(F)(F)C(F)F)cc2)c1=O)[C@](O)(Cn1cncn1)c1ccc(F)cc1F ; strain: 60 strains ; value: 0.07 µg/mL
COCCOCCOCCOCCOCCOCCNC(=O)[C@H]1[C@@H]2C[C@@H](O[C@@H]3O[C@H](C)[C@@H](O)[C@H](N)[C@@H]3O)/C=C/C=C/C=C/C=C/C=C/C=C/C=C/[C@H](C)[C@@H](O)[C@H](C)[C@H](C)OC(=O)C[C@H](O)C[C@H](O)[C@@H](O)CC[C@H](O)C[C@H](O)C[C@](O)(C[C@@H]1O)O2 ; strain: Isolate 92-343 ; value: 3.03 µg/mL
C[C@@H](n1cnc2cc(N)c(F)cc2c1=O)[C@](O)(Cn1cncn1)c1ccc(F)cc1F ; strain: 60 strains ; value: 5 µg/mL
CC1OC(OC2CCC(c3ccc4c(c3O)C(=O)C3=C(C4=O)[C@@]4(O)C(=O)C[C@](C)(OC5C=CC(=O)C(C)O5)C[C@@]4(O)C=C3)OC2C)C=CC1=O ; strain: 6 strains ; value: 78 µg/mL
COC(=O)[C@H]1O[C@@H](n2cnc3c(N)ncnc32)[C@H](O)[C@@H]1NC(=O)[C@@H](N)CSC ; strain: FP633 ; value: >100 µg/mL
COc1cncc(C(N)=NN(C)S(C)(=O)=O)n1 ; read by: broth dilution ; value: >256 µg/mL
Cc1ccc(CSCC(N)C(=O)N[C@H]2[C@@H](O)[C@H](n3cnc4c(N)ncnc43)O[C@@H]2C(=O)O)cc1 ; strain: FP633 ; value: 0.2 µg/mL
NC1=NC2(CCCCC2)N(OCc2ccc(Cl)c(Cl)c2)C(N)=N1 ; value: 250 µg/mL
CCC(C)[C@H](N)CC(=O)N[C@@H](CC)NC(=O)N[C@@H](CCCCN)CC(=O)N[C@H](CC(=O)N[C@@H](CC)NC(=O)N[C@@H](CCCCN)CC(=O)N[C@H](CC(=O)N[C@@H](CC)NC(=O)N[C@@H](CCCCN)CC(N)=O)C(C)CC)C(C)CC ; strain: SC5314 ; read by: XTT / broth dilution ; value: >128 µg/mL
Nc1ncnc2c1ncn2[C@@H]1O[C@H](C(=O)O)[C@@H](NC(=O)C(N)Cc2ccncc2)[C@H]1O ; strain: FP633 ; value: 12.5 µg/mL
Cc1c(Sc2ccccc2)[n+](=O)c2cc(C(F)(F)F)ccc2n1[O-] ; strain: Clinical isolate 9 ; value: 31.25 µg/mL
C[C@@H](NC(=O)N[C@@H](CCCCN)CC(N)=O)NC(=O)[C@H]1CCCC[C@@H]1NC(=O)C[C@H](CCCCN)NC(=O)N[C@H](C)NC(=O)[C@H]1CCCC[C@@H]1NC(=O)C[C@H](CCCCN)NC(=O)N[C@H](C)NC(=O)[C@H]1CCCC[C@@H]1NC(=O)C[C@@H](N)Cc1ccc(O)cc1 ; strain: SC5314 ; read by: XTT / broth dilution ; value: 128 µg/mL
C[C@@H]1C[C@@H](O)c2c(O[C@H]3O[C@H](CO)[C@@H](O)[C@H]3O)cccc2O1 ; strain: ATCC 32354 ; read by: turbidity ; value: >128 µg/mL
CC(CCCCCCCCCON1C(N)=NC(N)=NC12CCCCC2)c1ccccc1 ; value: 30 µg/mL
N=C(N)c1ccc2nc(-c3ccc(-c4nc5ccc(C(=N)N)cc5[nH]4)[nH]3)[nH]c2c1 ; strain: Isolate 1866 ; value: 0.78 µg/mL
CN(C)c1ccc(CSCC(N)C(=O)N[C@H]2[C@@H](O)[C@H](n3cnc4c(N)ncnc43)O[C@@H]2C(=O)O)cc1 ; strain: FP633 ; value: 0.8 µg/mL
C[C@@H](SC1COC(/C=C/C=C/c2ccc(C#N)cc2F)OC1)[C@](O)(Cn1cncn1)c1ccc(F)cc1F ; strain: CAL-0148 ; value: 0.016 µg/mL
Nc1ncc(CC(N)C(=O)N[C@H]2[C@@H](O)[C@H](n3cnc4c(N)ncnc43)O[C@@H]2C(=O)O)s1 ; strain: FP633 ; value: 6.2 µg/mL
CCCCCCCCCCON1C(N)=NC(N)=NC1(C)C ; value: 30 µg/mL
Cc1cc2c(O[C@H]3O[C@H](CO)[C@@H](O)[C@H]3O)ccc(O)c2c(=O)o1 ; strain: ATCC 10231 ; read by: turbidity ; value: >128 µg/mL
CNN=C(N)c1cnccn1 ; read by: broth dilution ; value: >256 µg/mL
Cc1ccc(O)c(C(=O)/C=C/c2ccc(O)cc2O)c1 ; strain: SDAU2 ; value: 50 µg/mL
COc1cc(O)c2c(c1)C(=O)c1c(cc3c(c1O)-c1c(cc(C)c(C(=O)NCC(=O)O)c1O)[C@H](OC1OC(C)C(N(C)C)C(OC4OCC(O)C(O)C4O)C1O)[C@H]3O)C2=O ; strain: IAM4888 ; value: 6.3 µg/mL
C[C@@H](n1cnc2cc(Cl)ccc2c1=O)[C@](O)(Cn1cncn1)c1ccc(Cl)cc1Cl ; strain: 60 strains ; value: ≤0.03 µg/mL
CC(C)[C@@H](NC(=O)N[C@@H](CCCCN)CC(N)=O)NC(=O)[C@H]1CCCC[C@@H]1N ; strain: SC5314 ; read by: XTT / broth dilution ; value: 8 µg/mL
C=CC(C)(C)c1[nH]c2ccccc2c1/C=C1\NC(=O)[C@@H]2CCCN2C1=O ; strain: SC5314 ; value: >100 µg/mL
CS[C@@]1(Cc2ccccc2)NC(=O)[C@@](Cc2ccccc2)(SC)NC1=O ; value: 50 µg/mL
O=C(/C=C/c1ccc(O)cc1O)c1ccccc1O ; strain: ATCC 18804 ; value: 50 µg/mL
CCCCCCCCOc1ccc(CON2C(N)=NC(N)=NC2(C)C)cc1 ; value: 7.5 µg/mL
O=S(=O)(c1ccccc1)n1cnc(-c2cncc(Cl)n2)n1 ; read by: broth dilution ; value: >256 µg/mL
O=[n+]1c(Sc2ccccc2)c(CBr)n([O-])c2ccccc21 ; strain: Clinical isolate 10 ; value: 31.25 µg/mL
C[C@@H](n1cnc2ncccc2c1=O)[C@](O)(Cn1cncn1)c1ccc(F)cc1F ; strain: 60 strains ; value: 10 µg/mL

For reference, 6 entries again:

SMILES,strain,read by,value
C[C@@H](n1cnc2cc(Cl)ccc2c1=O)[C@](O)(Cn1cncn1)c1ccc(Cl)cc1Cl,60 strains,-,≤0.03 µg/mL
COCCOCCOCCOCCOCCOCCNC(=O)[C@H]1[C@@H]2C[C@@H](O[C@@H]3O[C@H](C)[C@@H](O)[C@H](N)[C@@H]3O)/C=C/C=C/C=C/C=C/C=C/C=C/C=C/[C@H](C)[C@@H](O)[C@H](C)[C@H](C)OC(=O)C[C@H](O)C[C@H](O)[C@@H](O)CC[C@H](O)C[C@H](O)C[C@](O)(C[C@@H]1O)O2,Isolate 92-343,-,3.03 µg/mL
CNN=C(N)c1cnccn1,-,broth dilution,>256 µg/mL
CC(C)(O)c1cn(-c2ccc(Cl)cc2)nn1,URM 4126,broth dilution,128 µg/mL
C[C@@H](n1cnc2cc(Sc3ccccc3)ccc2c1=O)[C@](O)(Cn1cncn1)c1ccc(F)cc1F,60 strains,-,≤0.03 µg/mL
C[C@@H](NC(=O)N[C@@H](CCCCN)CC(N)=O)NC(=O)[C@H]1CCCC[C@@H]1NC(=O)C[C@H](CCCCN)NC(=O)N[C@H](C)NC(=O)[C@H]1CCCC[C@@H]1NC(=O)C[C@H](CCCCN)NC(=O)N[C@H](C)NC(=O)[C@H]1CCCC[C@@H]1NC(=O)C[C@@H](N)Cc1ccc(O)cc1,SC5314,XTT / broth dilution,128 µg/mL